This is a selection; strong and weak results do not stand in their true shares. Results filed as inconclusive are left out. The source made the active and inactive calls. Cut-off read from the data, not from the text of the source: active = inhibition above about 35% (passing the limit was not always enough); inconclusive = no clear call, values can overlap the other calls.
test system: Botulinum neurotoxin type F light chain protease (Clostridium botulinum); assay: BoNT/F light chain protease inhibitors, primary screen, biochemical, flow cytometry, MLPCN library (AID 588497); conditions: Multiplex microsphere protease cleavage assay, at 10 µM, active compounds read high; note: plate controls were buffer without enzyme for full effect and enzyme alone for no effect

SMILES | inhibition
CCN(/C(=N/P(=O)(N1CCOCC1)N1CCOCC1)N1CCOCC1)c1ccc(OC)cc1 | inactive: -4.6%
Nc1ccc([As](=O)(O)c2ccc(N)cc2)cc1 | inactive: -7.3%
C[N+]1=C2C=CC=CC=C2SC12C([N+](=O)[O-])=CC([N+](=O)[O-])=C[C-]2[N+](=O)[O-] (stereo not given) | inactive: 11.3%
Cc1ccc(NP(=O)(Oc2ccccc2)Oc2ccccc2)nc1 | inactive: -6.4%
O=[N+]([O-])c1cc([N+](=O)[O-])c(CCNc2ccccc2)c([N+](=O)[O-])c1 | inactive: -21.2%
CCc1nc2c(n1)c1c(non1O)c1c2no[n+]1[O-] | inactive: -0.2%
CC(=O)N1C2C3N(C(C)=O)C1C1N(C(C)=O)C(C(N1C(C)=O)N3C(C)=O)N2C(C)=O | inactive: 5.1%
O=[N+]([O-])c1cccc2n[nH]nc12 | inactive: -3.2%
COc1ccc(C2=NCC(CBr)S2)cc1 (stereo not given) | inactive: -16.7%
c1nnnn1CCn1cnnn1 | inactive: 21.8%
O=P(Nc1nccs1)(c1ccccc1)c1ccccc1 | inactive: -1.2%
CC(C)C(=O)NC(Sc1ccccc1)C(Cl)(Cl)Cl (stereo not given) | inactive: -3.5%
O=C(OC1CN2CCC1CC2)c1cccc(Cl)c1 (stereo not given) | inactive: 7.3%
C(Cc1nn[nH]n1)Cc1nn[nH]n1 | inactive: -1.4%
Nc1ccc([As](=O)(O)c2ccc([N+](=O)[O-])cc2)cc1 | inactive: -1.1%
O=[As](O)(c1ccccc1)c1ccc(O)cc1 | inactive: -3%
CC(=O)NC(SC(=S)N(C)C)C(Cl)(Cl)Cl (stereo not given) | inactive: 3.9%
O=[N+]([O-])c1ncn(CCn2cnc([N+](=O)[O-])n2)n1 | inactive: 1.5%
O=[N+]([O-])c1ccc(O)c(/C=N/Nc2ccc([N+](=O)[O-])cc2[N+](=O)[O-])c1 | inactive: -3.6%
O=P(Nc1nc2ccccc2s1)(c1ccccc1)c1ccccc1 | inactive: -12.3%
C[C@H]1OP(=O)(Oc2ccccc2)[C@H](O)[C@H](O)[C@H]1N=[N+]=[N-] (stereo not given in full) | inactive: 0.6%
CN(C)C1(CNC(=O)c2ccc(Cl)c(S(N)(=O)=O)c2)CCCCC1 | inactive: 11.1%
O=P(Nc1ccccn1)(c1ccc(Br)cc1)c1ccc(Br)cc1 | inactive: -11.9%
COc1ccc(N)c([N+](=O)[O-])c1[N+](=O)[O-] | inactive: -3%
Nc1ccc(CCCCOc2ccccc2)cc1 | inactive: -10.1%

SMILES | inhibition
CC(NC(=O)COC(=O)C(O)(c1ccccc1)c1ccccc1)c1ccccc1 (stereo not given) | inactive: 9%
O=c1c2cc([N+](=O)[O-])ccc2[nH]c2c([N+](=O)[O-])cc([N+](=O)[O-])cc12 | inactive: -1.5%
O=C(OC1CN2CCC1CC2)c1ccccc1 (stereo not given) | inactive: -15.6%
CCC(=O)N1C2C3N(C(=O)CC)C1C1N(C(=O)CC)C(C(N1C(=O)CC)N3C(=O)CC)N2C(=O)CC | inactive: 1.7%
COC(=O)c1cc2c(s1)N=C(c1ccccc1)N(C)P2(=O)N1CCOCC1 (stereo not given) | inactive: 1.2%
CC(=O)NC(SC(=S)N(CC(C)C)CC(C)C)C(Cl)(Cl)Cl (stereo not given) | inactive: -3%
Cc1ccc(OP(=O)(Nc2ccccn2)Oc2ccc(C)cc2)cc1 | inactive: -6%
O=P1(N(CCCl)CCCl)OCCC2CCCCN21 (stereo not given) | inactive: -13.6%
c1ccc(-c2nn[nH]n2)c(-c2nn[nH]n2)c1 | inactive: -6.9%
O=C(NC1CCS(=O)(=O)C1)NP(=S)(Oc1ccccc1)Oc1ccccc1 (stereo not given) | inactive: -9%
CCNC(=S)/N=C(\N)N[N+](=O)[O-] | inactive: -6.1%
CC(=O)Nc1ccc([As](=O)(O)O)c(O)c1 | inactive: -3.3%
CC(=O)Nc1ccc(Oc2c([N+](=O)[O-])cc([N+](=O)[O-])cc2[N+](=O)[O-])cc1 | inactive: -0.2%
Cc1ccccc1CN(C)C(=O)COC(=O)C(O)(c1ccccc1)c1ccccc1 | inactive: 4.5%
C[C@H]1OP(=O)(Oc2ccccc2)C[C@@H]2O[C@@H]21 (stereo not given in full) | inactive: 0.1%
C[C@@H]1C=CCP(=O)(Oc2ccccc2)O1 (stereo not given in full) | inactive: -1.8%
CC(=O)c1ccc(N2CC2c2ccncc2)cc1 (stereo not given) | inactive: -34.9%
N#C/C(=C\c1ccc(N(CCBr)CCBr)cc1)C(N)=O | inactive: -0.6%
COC(=O)C1(C)COP(=O)(NCc2ccccc2)OC1 (stereo not given) | inactive: 0.4%
CC(C)(C)C(=O)NC(Sc1ccccc1)C(Cl)(Cl)Cl (stereo not given) | inactive: -0.4%
CCc1cc(O)c([N+](=O)[O-])c(C)c1[N+](=O)[O-] | inactive: 3.5%
O=P1(Nc2nc3ccc(Cl)cc3s2)COc2ccccc2O1 (stereo not given) | inactive: 0.1%
CCOc1ccc(C2=NCC(CBr)S2)cc1 (stereo not given) | inactive: 1.5%
COc1cc(C2NCCC3(OCCO3)C2(C)C)cc(OC)c1OC (stereo not given) | inactive: -10%
CCOP(=O)(Nc1cccc2ccccc12)OCC | inactive: -4.1%

SMILES | inhibition
Cc1ccc(NCCc2c([N+](=O)[O-])cc([N+](=O)[O-])cc2[N+](=O)[O-])cc1 | inactive: -12.1%
Nc1cccc2c([As](=O)(O)O)cccc12 | inactive: -16.2%
CCCOP(=S)(Nc1nc(N)cc(=O)[nH]1)OCCC | inactive: 0.9%
Cc1cccc(OCC(=O)OC2CN3CCC2CC3)c1 (stereo not given) | inactive: -0.5%
O=[As](O)(c1cccc(O)c1)c1cccc(O)c1 | inactive: 1.3%
O=[As](O)(O)c1cccnc1 | inactive: -6%
COc1cc(C(=O)NCC2(N3CCOCC3)CCCCC2)cc(Cl)c1OC(C)C | inactive: -7.6%
CS(=O)(=O)c1ccc(Cl)c(NC(=O)COC(=O)C(O)(c2ccccc2)c2ccccc2)c1 | inactive: -0.8%
N#CCCN(C(=O)COC(=O)C(O)(c1ccccc1)c1ccccc1)c1ccc(F)cc1 | inactive: -447%
CN(C(=O)Cc1ccccc1)[C@@H]1CC[C@]2(CCCO2)C[C@H]1N1CCCC1 | inactive: -1.4%
CCOP1(=S)c2c(C)nn(CCC#N)c2N=C(c2ccc(F)cc2)N1C (stereo not given) | inactive: -3.2%
O=[N+]([O-])c1ccc2c(c1)nnn2O | inactive: -0.2%
CN(C)C(=O)c1cc([N+](=O)[O-])cc2c1-c1c(cc([N+](=O)[O-])cc1[N+](=O)[O-])C2=O | inactive: -4.4%
CN(C(=O)Cc1ccc(Cl)c(Cl)c1)[C@H]1CC[C@@]2(CCCO2)C[C@@H]1N1CCCC1 | inactive: -2%
NC(=O)Nc1ccc([As](=O)(O)O)cc1 | inactive: -8.1%
O=C(O)COc1ccc([As](=O)(O)O)cc1[N+](=O)[O-] | inactive: 12.9%
Nc1ccccc1[As](=O)(O)c1ccccc1 | inactive: 2%
CCOP1(=S)c2c(C)nn(CCC#N)c2N=C(c2ccccc2F)N1C (stereo not given) | inactive: 2%
O=P(Nc1nccs1)(Oc1ccccc1)Oc1ccccc1 | inactive: -0.4%
O=P(Nc1nccs1)(c1ccccc1)c1nc2ccccc2s1 (stereo not given) | inactive: 6%
Nc1cccc([As](=O)(O)c2ccccc2)c1 | inactive: -1.3%
Cc1ccc(OCC(=O)OC2CN3CCC2CC3)cc1 (stereo not given) | inactive: -24%
O=[As](O)(c1cccs1)c1cccs1 | inactive: -2.6%
NS(=O)(=O)c1cccc(NC(=O)COC(=O)C(O)(c2ccccc2)c2ccccc2)c1 | inactive: -3.8%
O=P1(Nc2ccc(Br)cn2)COc2ccccc2OC1 | inactive: 0.9%

SMILES | inhibition
Cc1ccc(S(=O)(=O)N(CCCN)CCCc2c(C)nc(N)[nH]c2=O)cc1 | inactive: -5.1%
O=P1(Nc2ncccn2)COc2ccccc2OC1 | inactive: -11.6%
CN(C)C1(CNC(=O)c2ccc(S(C)(=O)=O)cc2)CCCCC1 | inactive: -6.6%
O=C(/C=C/c1ccccc1)OC1CN2CCC1CC2 (stereo not given) | inactive: -0.4%
CCCC1OP(=O)(Nc2ccccc2)OCC1CC (stereo not given) | inactive: 8.8%
Cc1nn(-c2ccccc2)c2c1P(=O)(N1CCOCC1)N(C)C(c1ccccc1)=N2 (stereo not given) | inactive: -8.5%
Cc1ccc(C(=O)OC2CN3CCC2CC3)cc1 (stereo not given) | inactive: 16.2%
CC1CCC(C(C)C)C(OP(=O)(Nc2ccccn2)c2ccccc2)C1 (stereo not given) | inactive: -1.7%
CN(C(=O)Cc1ccc(Cl)c(Cl)c1)[C@@H]1CCCC[C@H]1N1CCCC1 | inactive: 5.4%
CC(C)/C=N\N=C(\N)N[N+](=O)[O-] | inactive: 5.2%
CC1(CBr)Cn2c(nc3ccccc3c2=O)S1 (stereo not given) | inactive: -8.4%
O=P1(N(CCCl)CCCl)NCCC(C(F)(F)F)O1 (stereo not given) | inactive: -1.4%
CC(C)(C)C(=O)NC(Sc1ncccn1)C(Cl)(Cl)Cl (stereo not given) | inactive: -2.5%
CCC1=CC2Cc3nc4ccc(Cl)cc4c(N)c3C(C1)C2 (stereo not given) | inactive: -11.6%
O=P1(Nc2ccccn2)COc2ccccc2OC1 | inactive: 14.2%
CCOP(=O)(NC(=NC(C)c1ccccc1)NC(C)c1ccccc1)OCC (stereo not given) | inactive: -11.3%
CCOP(=O)(Nc1ccc(C)cn1)OCC | inactive: -4.1%
CN(CCCl)Cc1cc(Cl)c(NC2=NCCN2)c(Cl)c1 | inactive: -4.2%
CCC(C)N(CC(C)C)C(=S)SC(NC(C)=O)C(Cl)(Cl)Cl (stereo not given) | inactive: -38%
CSc1ccc(Nc2c([N+](=O)[O-])cc([N+](=O)[O-])cc2[N+](=O)[O-])cc1 | inactive: -13.5%
O=C(O)C(=O)c1ccc(N(CCCl)CCCl)cc1 | inactive: -4.5%
O=C(COc1ccccc1)OC1CN2CCC1CC2 (stereo not given) | inactive: 2.9%
COP1(=S)c2c(C)nn(CCC#N)c2N=C(c2ccc(F)cc2)N1C (stereo not given) | inactive: -6%
COC(=O)C1(C)COP(=O)(N2CCCC2)OC1 (stereo not given) | inactive: -3.5%
Cc1cc(SC(NC=O)C(Cl)(Cl)Cl)ncn1 (stereo not given) | inactive: -1.5%
